Source: publication PMC5663709

Legend:
[1] = target: recombinant hemagglutinin (HA) trimer of H7N9 A/Anhui/1-BALF_RG17/2013, ectodomain (influenza A virus A/Anhui/1-BALF_RG17/2013 (H7N9)); assay: ELISA
[2] = target: H5N1 VN/04 HA trimer expressed on the surface of 293 T cells (influenza A virus A/Vietnam/1203/2004 (H5N1)) (UniProt Q6DQ33); assay: FACS

Substance | EC50 [1] | EC50 [2]
CR8020 | 0.069 µg/mL | –
F10 | – | 0.59 µg/mL
FI6V3 | – | 0.61 µg/mL
